From patent publication US20040258699A1

Molecular target: PA63 (anthrax protective antigen, 63 kDa form) (Bacillus anthracis) (UniProt P13423)

LF protein (lethal factor) (from UniProt P15917 34-809)
IC50 (read off the curve): 0.07 mg/L
